Assay results as given in publication PMC10044114, “Mechanisms of Antimicrobial Peptides from Bagasse against Human Pathogenic Bacteria” (Antibiotics, 2023).

Key:
Assay in all cases: Shotgun proteomics of peptide-treated bacteria
Burkholderia cepacia = format: cell-based; conditions: for Differentially expressed proteins shared with kanamycin / Differentially expressed proteins shared with oxycline / Differentially expressed proteins, unique to peptide treatment / Total proteins differentially expressed: LC-MS/MS; for Total proteins differentially expressed: Burkholderia cepacia treated 6 h with peptide
P. aeruginosa = format: cell-based, Pseudomonas aeruginosa; conditions: for Differentially expressed proteins shared with oxycline / Differentially expressed proteins, unique to peptide treatment: P. aeruginosa treated 6 h, Venn diagram; for Differentially expressed proteins shared with oxycline / Differentially expressed proteins, unique to peptide treatment / Total proteins differentially expressed: LC-MS/MS; for Total proteins differentially expressed: P. aeruginosa treated 6 h with peptide
Bacillus subtilis = format: cell-based; conditions: for Differentially expressed proteins shared with ampicillin / Differentially expressed proteins shared with kanamycin / Differentially expressed proteins shared with oxycline / Differentially expressed proteins, unique to peptide treatment: Bacillus subtilis treated 6 h, Venn diagram; for Differentially expressed proteins shared with ampicillin / Differentially expressed proteins shared with kanamycin / Differentially expressed proteins shared with oxycline / Differentially expressed proteins, unique to peptide treatment / Total proteins differentially expressed: LC-MS/MS; for Total proteins differentially expressed: Bacillus subtilis treated 6 h with peptide
[1] = Burkholderia cepacia treated 6 h, Venn diagram
[2] = Burkholderia cepacia, proteins unique to peptide treatment, UniProt GO classification
[3] = P. aeruginosa, proteins unique to peptide treatment, UniProt GO classification

NLWSNEINQDMAEF [Peptide no.3, Asn-Leu-Trp-Ser-Asn-Glu-Ile-Asn-Gln-Asp-Met-Ala-Glu-Phe, synthetic peptide from bagasse (AW6) hydrolysate; LRR receptor-like serine/threonine-protein kinase GSO2 fragment]
Differentially expressed proteins shared with kanamycin (Burkholderia cepacia; [1]): 422
Differentially expressed proteins shared with oxycline (Burkholderia cepacia; [1]): 375
Differentially expressed proteins, unique to peptide treatment (Burkholderia cepacia; [1]): 436
Proteins commonly perturbed by peptide no.3, kanamycin, and oxycline (Burkholderia cepacia; [1]): 129
Proteins commonly perturbed by peptide no.3, no.4, and oxycline (Burkholderia cepacia; [1]): 109
Total proteins differentially expressed (Burkholderia cepacia): 4855
Share of differentially expressed proteins related to regulation of transcription (Burkholderia cepacia; [2]): 19.86%
Differentially expressed proteins shared with oxycline (P. aeruginosa): 8
Differentially expressed proteins, unique to peptide treatment (P. aeruginosa): 136
Total proteins differentially expressed (P. aeruginosa): 198
Share of differentially expressed proteins in category regulation of transcription and translation (P. aeruginosa; [3]): 28.57%
Differentially expressed proteins shared with ampicillin (Bacillus subtilis): 4
Differentially expressed proteins shared with kanamycin (Bacillus subtilis): 6
Differentially expressed proteins shared with oxycline (Bacillus subtilis): 9
Differentially expressed proteins, unique to peptide treatment (Bacillus subtilis): 39
Total proteins differentially expressed (Bacillus subtilis): 99

VSNCL [Peptide no.4, Val-Ser-Asn-Cys-Leu, synthetic peptide from bagasse (AW6) hydrolysate; 3-ketoacyl-CoA synthase fragment]
Differentially expressed proteins shared with kanamycin (Burkholderia cepacia; [1]): 209
Differentially expressed proteins shared with oxycline (Burkholderia cepacia; [1]): 327
Differentially expressed proteins, unique to peptide treatment (Burkholderia cepacia; [1]): 132
Proteins commonly perturbed by peptide no.3, no.4, and oxycline (Burkholderia cepacia; [1]): 109
Proteins commonly perturbed by peptide no.4 and kanamycin (Burkholderia cepacia; [1]): 156
Total proteins differentially expressed (Burkholderia cepacia): 2947
Share of differentially expressed proteins related to transmembrane transport (Burkholderia cepacia; [2]): 27.66%
Differentially expressed proteins shared with oxycline (P. aeruginosa): 7
Differentially expressed proteins, unique to peptide treatment (P. aeruginosa): 186
Total proteins differentially expressed (P. aeruginosa): 248
Share of differentially expressed proteins related to regulation of transcription (P. aeruginosa; [3]): 19.32%
Share of differentially expressed proteins related to the cell membrane (P. aeruginosa; [3]): 21.59%
Share of differentially expressed proteins related to regulation of transcription (Bacillus subtilis; B. subtilis, proteins unique to peptide treatment, UniProt GO classification): 42.31%
Differentially expressed proteins shared with ampicillin (Bacillus subtilis): 4
Differentially expressed proteins shared with kanamycin (Bacillus subtilis): 10
Differentially expressed proteins shared with oxycline (Bacillus subtilis): 6
Differentially expressed proteins, unique to peptide treatment (Bacillus subtilis): 43
Total proteins differentially expressed (Bacillus subtilis): 98
